# Non-standard residues stand in square brackets, D forms with d. Residues, ends and D or L forms follow the SMILES beside them.
# How the values were obtained:
# [1] = tested on: Acinetobacter baumannii versus human red blood cells; assay type: cell-based; conditions: ratio of HC50 (µM, 18 h) over geometric mean MIC (µM)
# [2] = tested on: Pseudomonas aeruginosa versus human red blood cells; assay type: cell-based; conditions: ratio of HC50 (µM, 18 h) over geometric mean MIC (µM)
SMILES,Acinetobacter baumannii T. I. (therapeutic index) [1],Pseudomonas aeruginosa T. I. (therapeutic index) [2]
CSCC[C@@H](NC(=O)[C@@H](Cc1c[nH]c2ccccc12)NC(=O)[C@@H](CC(C)C)NC(=O)[C@@H](C)N)C(=O)N[C@@H](C(=O)N[C@H](CC(C)C)C(=O)N[C@H](CC(C)C)C(=O)N[C@H](CCCCN)C(=O)N[C@H](CCCCN)C(=O)N[C@@H](C(=O)N[C@H](CC(C)C)C(=O)N[C@H](CCCCN)C(=O)N[C@H](C)C(=O)N[C@H](C)C(=O)N[C@H](C)C(=O)N[C@H](CCCCN)C(=O)N[C@H](C)C(=O)N[C@H](CC(C)C)C(=O)N[C@H](CC(N)=O)C(=O)N[C@H](C)C(=O)N[C@@H](C(=O)N[C@H](CC(C)C)C(=O)N[C@@H](C(=O)NCC(=O)N[C@H](C)C(=O)N[C@H](CC(N)=O)C(=O)N[C@H](C)C(N)=O)C(C)C)C(C)C)C(C)C)[C@H](C)O [D-Dermaseptin S4] (H-[dA][dL][dW][dM][dT][dL][dL][dK][dK][dV][dL][dK][dA][dA][dA][dK][dA][dL][dN][dA][dV][dL][dV]G[dA][dN][dA]-NH2),0.3,0.05
"CSCC[C@@H](NC(=O)[C@@H](Cc1c[nH]c2ccccc12)NC(=O)[C@@H](CC(C)C)NC(=O)[C@@H](C)N)C(=O)N[C@@H](C(=O)N[C@H](CC(C)C)C(=O)N[C@H](CCCCN)C(=O)N[C@H](CCCCN)C(=O)N[C@H](CCCCN)C(=O)N[C@@H](C(=O)N[C@H](CC(C)C)C(=O)N[C@H](CCCCN)C(=O)N[C@H](C)C(=O)N[C@H](CCCCN)C(=O)N[C@H](C)C(=O)N[C@H](CCCCN)C(=O)N[C@H](C)C(=O)N[C@H](CC(C)C)C(=O)N[C@H](CC(N)=O)C(=O)N[C@H](C)C(=O)N[C@@H](C(=O)N[C@H](CC(C)C)C(=O)N[C@@H](C(=O)NCC(=O)N[C@H](C)C(=O)N[C@H](CC(N)=O)C(=O)N[C@H](C)C(N)=O)C(C)C)C(C)C)C(C)C)[C@H](C)O [D-Dermaseptin S4 L7K,A14K] (H-[dA][dL][dW][dM][dT][dL][dK][dK][dK][dV][dL][dK][dA][dK][dA][dK][dA][dL][dN][dA][dV][dL][dV]G[dA][dN][dA]-NH2)",219,49
CC[C@@H](C)[C@@H](NC(=O)CNC(=O)[C@@H](CCCNC(=N)N)NC(=O)[C@@H](Cc1ccccc1)NC(=O)[C@H](NC(=O)[C@@H](Cc1c[nH]cn1)NC(=O)[C@@H](Cc1c[nH]cn1)NC(=O)[C@@H](Cc1ccccc1)NC(=O)[C@H](N)Cc1ccccc1)[C@H](C)CC)C(=O)N[C@@H](C(=O)N[C@H](Cc1c[nH]cn1)C(=O)N[C@H](CCCCN)C(=O)NCC(=O)N[C@H](CCCCN)C(=O)N[C@@H](C(=O)N[C@@H](C(=O)N[C@H](Cc1c[nH]cn1)C(=O)N[C@H](CCCNC(=N)N)C(=O)N[C@H](CC(C)C)C(=O)N[C@@H](C(=O)N[C@@H](C(=O)NCC(N)=O)[C@H](C)O)C(C)C)[C@H](C)CC)[C@H](C)O)C(C)C [D-Piscidin 1 V12K] (H-[dF][dF][dH][dH][dI][dF][dR]G[dI][dV][dH][dK]G[dK][dT][dI][dH][dR][dL][dV][dT]G-NH2),13,2.1
CC[C@@H](C)[C@@H](NC(=O)[C@@H](Cc1c[nH]cn1)NC(=O)[C@@H](Cc1c[nH]cn1)NC(=O)[C@@H](Cc1ccccc1)NC(=O)[C@H](N)Cc1ccccc1)C(=O)N[C@H](Cc1ccccc1)C(=O)N[C@H](CCCNC(=N)N)C(=O)NCC(=O)N[C@H](CCCCN)C(=O)N[C@@H](C(=O)N[C@H](Cc1c[nH]cn1)C(=O)N[C@@H](C(=O)NCC(=O)N[C@H](CCCCN)C(=O)N[C@@H](C(=O)N[C@@H](C(=O)N[C@H](Cc1c[nH]cn1)C(=O)N[C@H](CCCNC(=N)N)C(=O)N[C@H](CC(C)C)C(=O)N[C@@H](C(=O)N[C@@H](C(=O)NCC(N)=O)[C@H](C)O)C(C)C)[C@H](C)CC)[C@H](C)O)C(C)C)C(C)C [D-Piscidin 1 I9K] (H-[dF][dF][dH][dH][dI][dF][dR]G[dK][dV][dH][dV]G[dK][dT][dI][dH][dR][dL][dV][dT]G-NH2),33,3.2
CC[C@@H](C)[C@@H](NC(=O)CNC(=O)[C@@H](CCCNC(=N)N)NC(=O)[C@@H](Cc1ccccc1)NC(=O)[C@H](NC(=O)[C@@H](Cc1c[nH]cn1)NC(=O)[C@@H](Cc1c[nH]cn1)NC(=O)[C@@H](Cc1ccccc1)NC(=O)[C@H](N)Cc1ccccc1)[C@H](C)CC)C(=O)N[C@@H](C(=O)N[C@H](Cc1c[nH]cn1)C(=O)N[C@@H](C(=O)NCC(=O)N[C@H](CCCCN)C(=O)N[C@@H](C(=O)N[C@@H](C(=O)N[C@H](Cc1c[nH]cn1)C(=O)N[C@H](CCCNC(=N)N)C(=O)N[C@H](CC(C)C)C(=O)N[C@@H](C(=O)N[C@@H](C(=O)NCC(N)=O)[C@H](C)O)C(C)C)[C@H](C)CC)[C@H](C)O)C(C)C)C(C)C [D-Piscidin 1] (H-[dF][dF][dH][dH][dI][dF][dR]G[dI][dV][dH][dV]G[dK][dT][dI][dH][dR][dL][dV][dT]G-NH2),0.6,0.1
CC[C@@H](C)[C@@H](NC(=O)CNC(=O)[C@@H](CCCNC(=N)N)NC(=O)[C@@H](Cc1ccccc1)NC(=O)[C@H](NC(=O)[C@@H](Cc1c[nH]cn1)NC(=O)[C@@H](Cc1c[nH]cn1)NC(=O)[C@@H](Cc1ccccc1)NC(=O)[C@H](N)Cc1ccccc1)[C@H](C)CC)C(=O)N[C@@H](C(=O)N[C@H](Cc1c[nH]cn1)C(=O)N[C@@H](C(=O)N[C@H](CCCCN)C(=O)N[C@H](CCCCN)C(=O)N[C@@H](C(=O)N[C@@H](C(=O)N[C@H](Cc1c[nH]cn1)C(=O)N[C@H](CCCNC(=N)N)C(=O)N[C@H](CC(C)C)C(=O)N[C@@H](C(=O)N[C@@H](C(=O)NCC(N)=O)[C@H](C)O)C(C)C)[C@H](C)CC)[C@H](C)O)C(C)C)C(C)C [D-Piscidin 1 G13K] (H-[dF][dF][dH][dH][dI][dF][dR]G[dI][dV][dH][dV][dK][dK][dT][dI][dH][dR][dL][dV][dT]G-NH2),1.3,0.3

# Source: paper PMC4014698 (Pharmaceuticals, 2014)
